# Measurements reported in PubChem BioAssay AID624099 (ICCB-Longwood, 2012)
# Screen: 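Human genes that papillomavirus E2 requires to repress the HPV18 LCR promoter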 (primary screen)
# Cell system: human C33A cervical carcinoma cells (HPV-negative) stably expressing BPV1 E2 and an HPV18 LCR luciferase reporter
# Reagents: siRNA pool against human genes, 40 nM
# Timing: 72 h
# Detection: 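Per-well luciferase luminescence, z-scored on each plate against the plate mean and SD with control wells left out, then averaged across three replicate plates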
# Scale: mean z-score and z-score: higher = stronger reporter signal, weaker E2 silencing
# Active means: 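Mean z ≥ 2 together with z ≥ 2 in two or more of the three replicates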
# Here is a random part of about 21,000 reagents. In the full data, 497 (2.4%) got an active call. 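Higher z means weaker E2 silencing; only reporter increases were scored, and knock-downs that hurt cell survival may mask genuine repressor factors.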 Reagent sequences are not shown.
mean z-score,"z-score, replicate A","z-score, replicate B","z-score, replicate C",Call,Gene
-0.91,-1.05,-0.64,-1.03,inactive,IGHV1OR15-1 (immunoglobulin heavy variable 1/OR15-1 (non-functional))
-1.12,-0.77,-1.17,-1.43,inactive,ADA (adenosine deaminase)
-0.41,-0.59,-0.59,-0.06,inactive,NAMPT (nicotinamide phosphoribosyltransferase)
-1.03,-1.45,-0.83,-0.81,inactive,KRTAP4-1 (keratin associated protein 4-1)
0.25,0,0.35,0.41,inactive,MPZ (myelin protein zero)
-0.06,-0.36,0.13,0.04,inactive,STAU2 (staufen double-stranded RNA binding protein 2)
0,-0.05,0.53,-0.48,inactive,SPNS3
-0.56,-0.17,-0.95,-0.55,inactive,CPEB2 (cytoplasmic polyadenylation element binding protein 2)
-0.51,-0.69,-0.57,-0.28,inactive,PLCH2 (phospholipase C eta 2)
-0.56,-0.35,-0.62,-0.71,inactive,LOC339539
0.59,1.16,0.6,0.01,inactive,PLEKHB1 (pleckstrin homology domain containing B1)
-0.69,-0.75,-0.78,-0.54,inactive,TSPAN14 (tetraspanin 14)
0.84,0.76,0.86,0.9,inactive,IRF6 (interferon regulatory factor 6)
1.16,0.86,1.11,1.51,inactive,RUFY2 (RUN and FYVE domain containing 2)
1.42,1.15,1.5,1.61,inactive,CTRB1 (chymotrypsinogen B1)
0.1,0.01,0.02,0.28,inactive,BPHL (biphenyl hydrolase like)
-1.78,-1.27,-2.09,-1.98,inactive,CCDC80 (coiled-coil domain containing 80)
-0.2,-0.25,-0.52,0.17,inactive,OR6C2 (olfactory receptor family 6 subfamily C member 2)
0.86,0.88,0.86,0.85,inactive,GOSR1 (golgi SNAP receptor complex member 1)
1.14,1.16,0.88,1.38,inactive,LOC339902 (hCG1813818)
-1.03,-0.93,-1.13,-1.02,inactive,"ZNF252P (zinc finger protein 252, pseudogene)"
-0.39,-0.43,-0.3,-0.44,inactive,EIF3H (eukaryotic translation initiation factor 3 subunit H)
0.76,0.84,0.53,0.91,inactive,SERPINB13 (serpin family B member 13)
-0.32,0.13,-0.61,-0.49,inactive,DNAAF8 (dynein axonemal assembly factor 8)
1.89,1.68,1.79,2.19,inactive,SLC25A18
0.39,0.26,0.59,0.32,inactive,COA7 (cytochrome c oxidase assembly factor 7)
-0.77,-0.87,-0.8,-0.63,inactive,SDK2 (sidekick cell adhesion molecule 2)
1.2,1.23,1.03,1.35,inactive,CFAP91 (cilia and flagella associated protein 91)
0.02,-0.57,-0.51,1.14,inactive,MSANTD2 (Myb/SANT DNA binding domain containing 2)
-1.25,-1.44,-1.19,-1.12,inactive,WBP1L (WW domain binding protein 1 like)
0.32,0.56,0.54,-0.13,inactive,UQCRC2 (ubiquinol-cytochrome c reductase core protein 2)
0.17,0.24,0.15,0.13,inactive,FANCI (FA complementation group I)
1.01,1.36,1.19,0.48,inactive,ZNF276 (zinc finger protein 276)
-0.78,-0.73,-0.71,-0.9,inactive,SIL1 (SIL1 nucleotide exchange factor)
-1.23,-1.3,-1.34,-1.07,inactive,NTNG1 (netrin G1)
-1.8,-1.83,-1.88,-1.7,inactive,PLPPR2 (phospholipid phosphatase related 2)
0.77,0.55,0.56,1.21,inactive,IFT38 (intraflagellar transport 38)
0.83,0.94,0.41,1.15,inactive,HOXA9 (homeobox A9)
1.36,1.32,1.29,1.46,inactive,PLCH1 (phospholipase C eta 1)
-0.22,0.14,-0.4,-0.41,inactive,RIN3 (Ras and Rab interactor 3)
2.79,2.76,2.92,2.7,active,ARHGAP22 (Rho GTPase activating protein 22)
-0.69,-0.63,-0.8,-0.65,inactive,NTNG2 (netrin G2)
0.98,0.68,1,1.25,inactive,INO80D (INO80 complex subunit D)
-1.56,-1.68,-1.58,-1.43,inactive,WDR77 (WD repeat domain 77)
-0.42,-0.3,-0.61,-0.35,inactive,UCN2 (urocortin 2)
-0.91,-1.2,-0.65,-0.87,inactive,TRIM15 (tripartite motif containing 15)
-0.79,-0.83,-0.88,-0.65,inactive,BLMH (bleomycin hydrolase)
-1.33,-1.32,-1.23,-1.44,inactive,MROH2A (maestro heat like repeat family member 2A)
0.3,0.05,0.34,0.52,inactive,CABP7 (calcium binding protein 7)
-0.15,0.06,0,-0.52,inactive,DHFR (dihydrofolate reductase)
-0.28,0,-0.32,-0.52,inactive,PES1 (pescadillo ribosomal biogenesis factor 1)
1.07,1.18,1.06,0.96,inactive,ZNF558 (zinc finger protein 558)
-0.07,-0.58,0.06,0.31,inactive,CDH8 (cadherin 8)
-0.98,-1.12,-0.79,-1.03,inactive,KLF16 (KLF transcription factor 16)
0.41,0.36,0.18,0.69,inactive,VASH1 (vasohibin 1)
-1.71,-1.77,-1.84,-1.53,inactive,HBQ1 (hemoglobin subunit theta 1)
-0.71,-0.6,-0.88,-0.65,inactive,NKIRAS2 (NFKB inhibitor interacting Ras like 2)

4 entries already listed, sorted by “mean z-score”, lowest first:
mean z-score,"z-score, replicate A","z-score, replicate B","z-score, replicate C",Call,Gene
-1.78,-1.27,-2.09,-1.98,inactive,CCDC80 (coiled-coil domain containing 80)
0.1,0.01,0.02,0.28,inactive,BPHL (biphenyl hydrolase like)
1.16,0.86,1.11,1.51,inactive,RUFY2 (RUN and FYVE domain containing 2)
1.42,1.15,1.5,1.61,inactive,CTRB1 (chymotrypsinogen B1)
